Patent publication EP4825856A1, “N-SUBSTITUTED OXY-2-AMINOTHIAZOLECARBOXAMIDE COMPOUND OR SALT THEREOF AND AGRICULTURAL AND HORTICULTURAL BACTERICIDE” (dated 2026)

Assays:
Phytophthora infestans [1] = assay: Test Example 1: fungicidal effect against tomato late blight, preventive effect (pot test, spray application before inoculation); conditions: active ingredient concentration 400 ppm, 10 mL sprayed, lesion area ratio 3 days after inoculation
Experimental: (§1) The test compound and acetone or dimethyl sulfoxide were mixed to dissolve the test compound. The solution of the test compound was diluted with water to a predetermined concentration (400 ppm) of the test compound as an active ingredient to obtain chemical solutions. The chemical solutions thus obtained were used in the following Test Examples 1 to 3.
Test Example 1: Test on fungicidal effect against tomato late blight (Phytophthora infestans) (test on preventive effect)
Tomato was cultivated in a polyethylene pot having a diameter of 6 cm, and when the tomato reached 4.5- to 5.5-leaf stage, 10 mL of the chemical solution was applied by means of a spray gun. After the chemical solution dried (the day of application), the tomato was sprayed and inoculated with a suspension of spores of Phytophthora infestans and placed in an inoculation box at a temperature of 20°C under a humidity of 95% or higher for 16 hours. Then, the tomato was placed in a constant temperature room at 20°C. 3 Days after the inoculation, the lesion area ratio was visually examined, and the control value was calculated in accordance with the following formula. […] Control value (%) = 100−(X/Y) × 100 [formula] X: lesion area ratio (%) in treated plot, Y: lesion area ratio (%) in non-treated plot Test compounds: compound Nos. 1, 2, 3, 7, 8, 10, 11, 13, 17, 19, 32, 34, 41, 43, 47, 51, 53, 54, 55, 57, 58, 61, 71, 75, 84, 85, 86, 87, 90, 93, 94

[2] = tested on: Pseudoperonospora cubensis; assay: Test Example 2: fungicidal effect against cucumber downy mildew, preventive effect (pot test, spray application before inoculation); conditions: active ingredient concentration 400 ppm, 10 mL sprayed, lesion area ratio 7 days after inoculation
Experimental: as §1
Test Example 2: Test on fungicidal effect against cucumber downy mildew
(Pseudoperonospora cubensis) (test on preventive effect)
Cucumber was cultivated in a polyethylene pot having a diameter of 6 cm, and when the cucumber reached 1.2- to 1.5-leaf stage, 10 mL of the chemical solution was applied by means of a spray gun. After the chemical solution dried (the day of application or the next day), the cucumber was sprayed and inoculated with a suspension of spores of Pseudoperonospora cubensis and placed in an inoculation box at a temperature of 20°C under a humidity of 95% or higher for 24 hours. Then, the cucumber was placed in a constant temperature room at 20°C. 7 Days after the inoculation, the lesion area ratio was examined on the same basis as in Text Example 1, and the control value was calculated in accordance with the same formula as in Test Example 1.

Phytophthora infestans [3] = assay: Test Example 3: fungicidal effect against tomato late blight, curative effect (pot test, spray application after inoculation); conditions: curative (applied 4 hours after inoculation), active ingredient concentration 400 ppm, 10 mL sprayed, lesion area ratio 3 days after inoculation
Experimental: as §1
Test Example 3: Test on fungicidal effect against tomato late blight (Phytophthora infestans) (test on curative effect)
Tomato was cultivated in a polyethylene pot having a diameter of 6 cm, and when the tomato reached 4.5- to 5.5-leaf stage, the tomato was sprayed and inoculated with a suspension of spores of Phytophthora infestans and placed in an inoculation box at a temperature of 20°C under a humidity of 95% or higher for 4 hours. Then, 10 mL of the chemical solution was applied by means of a spray gun. After the chemical solution dried (the day of application), the tomato was placed in a constant temperature room at 20°C. 3 Days after the inoculation, the lesion area ratio was examined on the same basis as in Test Example 1, and the control value was calculated in accordance with the same formula as in Test Example 1. […] Test Compounds: compound Nos. 3, 7, 8, 10, 11, 13, 17, 19, 32, 34, 41, 51, 54, 55, 57, 58, 61, 84, 87

Compound | control value (Phytophthora infestans [1]) | control value [2] | control value (Phytophthora infestans [3])
CCON(Cc1cc(F)c(F)nc1Cl)C(=O)c1sc(N)nc1Cl | ≥ 80% | ≥ 80% | ≥ 80%
CON(Cc1cnc(F)cc1Cl)C(=O)c1sc(N)nc1F | ≥ 80% | ≥ 80% | ≥ 80%
CON(Cc1cnc(F)cc1Cl)C(=O)c1sc(N)nc1Cl | ≥ 80% | ≥ 80% | ≥ 80%
CON(Cc1cccnc1Cl)C(=O)c1cnc(N)s1 | ≥ 80% | ≥ 80% | 
CON(Cc1cc(F)cnc1Cl)C(=O)c1sc(N)nc1F | ≥ 80% | ≥ 80% | ≥ 80%
CON(Cc1cccnc1C(F)(F)F)C(=O)c1sc(N)nc1Cl | ≥ 80% |  | 
CON(Cc1cc(F)c(F)nc1Cl)C(=O)c1cnc(N)s1 | ≥ 80% | ≥ 80% | ≥ 80%
C#CCON(Cc1cc(F)c(F)nc1Cl)C(=O)c1sc(N)nc1F | ≥ 80% | ≥ 80% | ≥ 80%
CON(Cc1cc(F)c(F)nc1Cl)C(=O)c1sc(N)nc1C#N | ≥ 80% | ≥ 80% | ≥ 80%
CON(Cc1cc(F)c(F)nc1Cl)C(=O)c1sc(N)nc1F | ≥ 80% | ≥ 80% | ≥ 80%
C=CCON(Cc1cc(F)c(F)nc1Cl)C(=O)c1sc(N)nc1Cl | ≥ 80% | ≥ 80% | ≥ 80%
CON(Cc1cc(F)c(Cl)nc1Cl)C(=O)c1sc(N)nc1Cl | ≥ 80% | ≥ 80% | 
CON(Cc1cnccc1Cl)C(=O)c1cnc(N)s1 | ≥ 80% |  | ≥ 80%
CON(Cc1cc(F)c(F)nc1F)C(=O)c1sc(N)nc1F | ≥ 80% | ≥ 80% | ≥ 80%
CON(Cc1cccnc1[N+](=O)[O-])C(=O)c1sc(N)nc1Cl | ≥ 80% |  | 
CON(Cc1cc(F)c(F)nc1Cl)C(=O)c1sc(N)nc1C | ≥ 80% | ≥ 80% | ≥ 80%

Compound | control value (Phytophthora infestans [1]) | control value [2] | control value (Phytophthora infestans [3])
CON(Cc1cc(F)cnc1C#N)C(=O)c1sc(N)nc1Cl | ≥ 80% | ≥ 80% | 
C=Cc1nc(F)c(F)cc1CN(OC)C(=O)c1sc(N)nc1Cl | ≥ 80% | ≥ 80% | 
CON(Cc1ccc(C)nc1Cl)C(=O)c1sc(N)nc1Cl | ≥ 80% | ≥ 80% | 
CON(Cc1cc(F)c(F)nc1C)C(=O)c1sc(N)nc1Cl | ≥ 80% | ≥ 80% | ≥ 80%
CON(Cc1cccnc1C#N)C(=O)c1sc(N)nc1Cl | ≥ 80% |  | 
Cc1nc(C(F)F)c(C(=O)N(Cc2ccc(Cl)nc2)C2CC2)s1 | less than 30% | less than 30% | less than 30%
CON(Cc1cc(F)cnc1Cl)C(=O)c1sc(N)nc1Cl | ≥ 80% | ≥ 80% | ≥ 80%
N#CCON(Cc1cc(F)c(F)nc1Cl)C(=O)c1sc(N)nc1Cl | ≥ 80% | ≥ 80% | ≥ 80%
CON(Cc1cc(F)c(F)nc1F)C(=O)c1sc(N)nc1Cl | ≥ 80% |  | ≥ 80%
CON(Cc1ccc(F)nc1Cl)C(=O)c1sc(N)nc1F | ≥ 80% | ≥ 80% | ≥ 80%
CON(Cc1cc(F)c(F)nc1Cl)C(=O)c1sc(N)nc1Cl | ≥ 80% |  | ≥ 80%
CON(Cc1cc(F)c(F)nc1Cl)C(=O)c1sc(N)nc1C(F)(F)F | ≥ 80% | ≥ 80% | 
COC(=O)CON(Cc1cc(F)c(F)nc1Cl)C(=O)c1sc(N)nc1Cl | ≥ 80% | ≥ 80% | 
CON(Cc1cccnc1Cl)C(=O)c1sc(N)nc1Cl | ≥ 80% |  | 
CCc1nc(F)c(F)cc1CN(OC)C(=O)c1sc(N)nc1Cl | ≥ 80% | ≥ 80% | 
C#CCON(Cc1cc(F)c(F)nc1Cl)C(=O)c1sc(N)nc1Cl | ≥ 80% | ≥ 80% | ≥ 80%
